Anti-infective test results gathered from many reports (values: NIAID ChemDB through PubChem).

Shared fields: tests on isolated targets; agent: Hepatitis C virus

Neighbouring rows are from separate reports.

smiles	target	endpoint	result
CC(=O)N[C@@H](CC(=O)O)C(=O)N[C@@H](CCC(=O)O)C(=O)N[C@H](C(=O)N[C@@H](CCC(=O)O)C(=O)N[C@@H](CC1CCCCC1)C(=O)N[C@@H](CS)C(=O)O)c1ccccc1	HCV NS3 protease	IC50	0.12 µM
O=C(O)c1sc(-c2ccccc2)cc1NS(=O)(=O)c1cccc(C(F)(F)F)c1	NS3 ATPase	IC50	5–20 µM
CC(=O)N[C@H](C(=O)N[C@@H](CCC(=O)O)C(=O)N[C@@H](CC1CCCCC1)C(=O)N[C@@H](CS)C(=O)O)C(c1ccccc1)c1ccccc1	Full-length NS3	IC50	1.837 µM
CC(=O)N[C@@H](CC(=O)O)C(=O)N[C@H](CC(C(=O)O)C(=O)O)C(=O)N[C@@H](Cc1ccccc1)C(=O)N[C@@H](CCC(=O)O)C(=O)N[C@@H](CC1CCCCC1)C(=O)N[C@@H](CS)C(=O)C(=O)O	NS3/NS4A serine protease	Ki	0.00009 µM
COCC(C)N(C(=O)c1ccc(Cl)cc1Cl)c1cc(-c2ccccc2)sc1C(=O)O	NS3 ATPase	IC50	<5 µM
CSCC[C@H](NC(=O)[C@H](CCC(=O)O)NC(=O)[C@H](CC(=O)O)NC(C)=O)C(=O)N[C@@H](CCC(=O)O)C(=O)N[C@@H](Cc1ccc2ccccc2c1)C(=O)N[C@@H](CS)C(=O)O	HCV NS3 protease	IC50	0.8 µM
C=CCN(C(=O)C1CCC1)c1cc(-c2ccccc2)sc1C(=O)O	NS3 ATPase	IC50	>20 µM
CC(=O)N[C@@H](CCC(=O)O)C(=O)N[C@H](C(=O)N[C@@H](CCC(=O)O)C(=O)N[C@@H](CC1CCCCC1)C(=O)N[C@@H](CS)C(=O)O)C(c1ccccc1)c1ccccc1	Full-length NS3	IC50	0.5511 µM
CC(=O)N[C@@H](CC(=O)O)C(=O)N[C@@H](C(=O)N[C@@H](CC(C)C)C(=O)N[C@@H](CCC(=O)O)C(=O)N[C@@H](CC1CCCCC1)C(=O)N[C@@H](CS)C(=O)O)C(C)C	HCV NS3 protease	IC50	0.47 µM
CC(=O)N[C@@H](CC(=O)O)C(=O)N[C@@H](CCC(=O)O)C(=O)N[C@H](C(=O)N[C@@H](CCCCN)C(=O)N[C@@H](CC1CCCCC1)C(=O)N[C@@H](CS)C(=O)O)C(c1ccccc1)c1ccccc1	Full-length NS3	IC50	2.07 µM
Cc1ccccc1S(=O)(=O)Nc1cc(-c2ccc(S(C)(=O)=O)cc2)sc1C(=O)O	NS3 ATPase	IC50	<5 µM
CSCC[C@H](NC(=O)[C@H](CCC(=O)O)NC(=O)[C@@H](CC(=O)O)NC(C)=O)C(=O)N[C@@H](CCC(=O)O)C(=O)N[C@@H](CCC(=O)O)C(=O)N[C@@H](CS)C(=O)O	HCV NS3 protease	IC50	1 µM
CC(=O)N[C@@H](CC(=O)O)C(=O)N[C@H](CC(C(=O)O)C(=O)O)C(=O)N[C@H](C(=O)N[C@@H](CCC(=O)O)C(=O)N[C@H](C(=O)N[C@@H](CS)C(=O)C(=O)O)c1ccccc1)C(c1ccccc1)c1ccccc1	NS3/NS4A serine protease	Ki	0.00009 µM
CCC[C@H](NC(=O)C1C[C@@H](OC(=O)N2CCc3ccccc3C2)CN1C(=O)[C@@H](NC(=O)[C@@H](NC(=O)c1cnccn1)C(C)C)C(C)C)C(=O)C(=O)N1CC(Oc2ccccc2)C1	HCV NS3 protease	Ki	<1 µM
Cc1ccccc1S(=O)(=O)Nc1cc(-c2ccccc2F)sc1C(=O)O	NS3 ATPase	IC50	<5 µM
CC(=O)N[C@@H](CC(=O)O)C(=O)N[C@@H](CC(C(=O)O)C(=O)O)C(=O)N[C@@H](CC(C)C)C(=O)N[C@@H](CCC(=O)O)C(=O)N[C@@H](CC1CCCCC1)C(=O)N[C@@H](CS)C(=O)O	HCV NS3 protease	IC50	0.055 µM
CSCC[C@H](NC(=O)[C@H](CCC(=O)O)NC(=O)[C@H](CC(=O)O)NC(C)=O)C(=O)N[C@@H](CCC(=O)O)C(=O)N[C@@H](CC1CCCCC1)C(=O)N[C@@H](CS)C(=O)O	HCV NS3 protease	IC50	0.36 µM
CC(=O)N[C@@H](CC(=O)O)C(=O)N[C@H](CC(C(=O)O)C(=O)O)C(=O)N[C@H](C(=O)N[C@@H](CCC(=O)O)C(=O)N[C@H](C(=O)N[C@@H](CS)C(=O)C(=O)O)C(c1ccccc1)c1ccccc1)C(c1ccccc1)c1ccccc1	NS3/NS4A serine protease	Ki	0.00004 µM
CC1CCC(C(=O)N(c2cc(C3=CCN(C(=O)OCc4ccccc4)CC3)sc2C(=O)O)C(C)C)CC1	NS3 ATPase	IC50	<5 µM
CSCC[C@H](NC(=O)CCCC(=O)O)C(=O)N[C@@H](CCC(=O)O)C(=O)N[C@@H](CCC(=O)O)C(=O)N[C@@H](CS)C(=O)O	HCV NS3 protease	IC50	69 µM
CC(=O)N[C@@H](CC(=O)O)C(=O)N[C@H](Cc1ccc(O)cc1)C(=O)N[C@H](C(=O)N[C@@H](CCC(=O)O)C(=O)N[C@@H](CC1CCCCC1)C(=O)N[C@@H](CS)C(=O)C(=O)O)C(c1ccccc1)c1ccccc1	NS3/NS4A serine protease	Ki	65 µM
CC(=O)N[C@@H](CC(=O)O)C(=O)N[C@@H](C(=O)N[C@@H](CC(C)C)C(=O)N[C@@H](CCC(=O)O)C(=O)N[C@@H](CC1CCCCC1)C(=O)N[C@@H](CS)C(=O)O)C(c1ccccc1)c1ccccc1	HCV NS3 protease	IC50	0.276 µM
CC(=O)N[C@@H](CC(=O)O)C(=O)N[C@H](CC(C(=O)O)C(=O)O)C(=O)N[C@H](C(=O)N[C@H](C(=O)N[C@@H](CC1CCCCC1)C(=O)N[C@@H](CS)C(=O)C(=O)O)C(C)(C)C)C(c1ccccc1)c1ccccc1	NS3/NS4A serine protease	Ki	0.00006 µM
Cc1cc(S(=O)(=O)Nc2cc(C(C)(C)C)sc2C(=O)O)c(C)cc1Cl	NS3 ATPase	IC50	5–20 µM
CC(=O)N[C@@H](CC(=O)O)C(=O)N[C@@H](CCC(=O)O)C(=O)N[C@@H](CC1CCCCC1)C(=O)N[C@@H](CCC(=O)O)C(=O)N[C@@H](CC1CCCCC1)C(=O)N[C@@H](CS)C(=O)O	HCV NS3 protease	IC50	0.14 µM
CC(=O)N[C@@H](CC(=O)O)C(=O)N[C@H](CC(C(=O)O)C(=O)O)C(=O)N[C@H](C(=O)N[C@@H](CCC(=O)O)C(=O)N[C@H](C(=O)N[C@@H](CS)C(=O)C(=O)O)C(C)C)C(c1ccccc1)c1ccccc1	NS3/NS4A serine protease	Ki	0.0002 µM
CC1CN(C(=O)OCc2ccccc2)CCC1C(=O)N(C(=O)c1ccc(Cl)cc1Cl)c1cc(-c2ccccc2)sc1C(=O)O	NS3 ATPase	IC50	<5 µM
CC[C@H](NC(=O)[C@@H](NC(=O)[C@@H](NC(=O)[C@H](CC(=O)O)NC(=O)CCC(=O)O)C(C)C)C(C)C)C(=O)N[C@@H](CS)C(=O)O	HCV NS3 protease	IC50	4.6 µM
O=C(O)c1sc(-c2ccccc2)cc1NS(=O)(=O)c1ccc(-c2csnn2)s1	NS3 ATPase	IC50	5–20 µM
CC(=O)N[C@@H](CC(=O)O)C(=O)N[C@H](CC(C(=O)O)C(=O)O)C(=O)N[C@H](C(=O)N[C@@H](CCC(=O)O)C(=O)N[C@@H](CCC(=O)O)C(=O)N[C@@H](CS)C(=O)C(=O)O)C(c1ccccc1)c1ccccc1	NS3/NS4A serine protease	Ki	0.00006 µM

Repeating the final 3 entries:

{"smiles": "CC[C@H](NC(=O)[C@@H](NC(=O)[C@@H](NC(=O)[C@H](CC(=O)O)NC(=O)CCC(=O)O)C(C)C)C(C)C)C(=O)N[C@@H](CS)C(=O)O", "target": "HCV NS3 protease", "endpoint": "IC50", "result": "4.6 µM"}
{"smiles": "O=C(O)c1sc(-c2ccccc2)cc1NS(=O)(=O)c1ccc(-c2csnn2)s1", "target": "NS3 ATPase", "endpoint": "IC50", "result": "5–20 µM"}
{"smiles": "CC(=O)N[C@@H](CC(=O)O)C(=O)N[C@H](CC(C(=O)O)C(=O)O)C(=O)N[C@H](C(=O)N[C@@H](CCC(=O)O)C(=O)N[C@@H](CCC(=O)O)C(=O)N[C@@H](CS)C(=O)C(=O)O)C(c1ccccc1)c1ccccc1", "target": "NS3/NS4A serine protease", "endpoint": "Ki", "result": "0.00006 µM"}

ICn is the concentration giving n% inhibition. a–b is a range or a potency band.